Data as given in US8076375B2 (priority 2005, dated 2011).

Biological target: variola F10 kinase (GST-F10) (Variola virus, UniProt P33801, R299C)
Settings: for Percent activity remaining at 10 μM, F10: 10 μM inhibitor; for Effect on F10 kinase activity in vitro (in words): 10 μM in the screen

| Compound | Percent activity remaining at 10 μM, F10 | Effect on F10 kinase activity in vitro (in words) |
| --- | --- | --- |
| O=S(=O)(O)c1ccc(NN(c2c(O)ccc3ccccc23)S(=O)(=O)O)cc1 [Compound 9600-Q, 4-[N′-(2-hydroxynaphthalen-1-yl)-N′-sulfo-hydrazino]benzenesulfonic acid] | 8 ± 5% | specifically inhibited GST-F10 |
| O=C(O)C=Cc1ccc[c]([Sb](=[O])([OH])[OH])c1 [Compound 13778-J, 3-(3-stibonophenyl)prop-2-enoic acid] | 4 ± 4% | specifically inhibited GST-F10 |
| Nc1nc(N)c(/N=N/c2ccc(C(=O)O)c(O)c2)c(N)n1 [Compound 117285-R, 2-hydroxy-4-(2,4,6-triaminopyrimidin-5-yl)diazenyl-benzoic acid] | 48 ± 20% | – |
| O=C(O)C1CCCCC1c1c2ccc(=O)c(O)c-2oc2c(O)c(O)ccc12 (stereo not shown) [Compound 119910-U, 2-(4,5,6-trihydroxy-3-oxo-xanthen-9-yl)cyclohexane-1-carboxylic acid] | 6% | – |
| O=C(O)C=Cc1c2ccc(=O)c(O)c-2oc2c(O)c(O)ccc12 [Compound 119911-V, 3-(4,5,6-trihydroxy-3-oxo-xanthen-9-yl)prop-2-enoic acid] | 2% | – |
| CC1C2C=CC1C(c1c3ccc(=O)c(O)c-3oc3c(O)c(O)ccc13)C2C(=O)O (stereo not shown) [Compound 119913-X, 7-methyl-6-(4,5,6,-trihydroxy-3-oxo-xanthen-9-yl)-bicyclo[2.2.1]hetp-2-ene-5-carboxylic acid] | 2% | – |
| O=C(O)CCc1c2ccc(=O)c(O)c-2oc2c(O)c(O)ccc12 [Compound 119915-Z, 3-(4,5,6-trihydroxy-3-oxo-xanthen-9-yl)propanoic acid] | 4% | – |
| O=C(O)c1cccc(/N=N/c2c(S(=O)(=O)O)ccc3c2C(=O)c2ccccc2C3=O)c1O [Compound 125908-P, 3-(9,10-dioxo-2-sulfo-anthracen-1-yl)diazenyl-2-hydroxy-benzoic acid] | 8% | specifically inhibited GST-F10 |
| O=C1c2ccccc2C(=O)c2c(NC3CCCCC3)ccc(Nc3ccc(S(=O)(=O)O)cc3)c21 [Compound 128437-O, 4-(4-cyclohexylamino-9,10-dioxo-anthracen-1-yl)aminobenzenesulfonic acid] | 12% | specifically inhibited GST-F10 |
| CCc1c(O)c2c(c(O)c1C(C)=O)C(=O)c1c(cc(O)c(C(=O)O)c1C(=O)O)C2=O [Compound 170008-Y, 2-acetyl-7,8-bis(dihydroxymethylidene)-3-ethyl-9-hydroxy-anthracene-1,4,6,10-tetrone] | 2% | – |
| O=C(O)c1cc2c(cc1S(=O)(=O)O)C1C(C3C2C2(Cl)C(Cl)=C(Cl)C3(Cl)C2(Cl)Cl)C2(Cl)C(Cl)=C(Cl)C1(Cl)C2(Cl)Cl (stereo not shown) [Compound 270718-R, 3-sulfo-2-naphthoic acid-bis(hexachlorocyclopentadiene) adduct] | 19 ± 18% | – |
| CN[C@@H]1C[C@H]2O[C@@](C)([C@@H]1OC)n1c3ccccc3c3c4c(c5c6ccccc6n2c5c31)C(=O)NC4 [staurosporine, reference compound] | – | inhibited B1 or F10 kinase |
